Our source for the Km values is PMC11703096 (PLOS ONE, 2025).

For this series, the system named is Nc1ncnc2c1ncn2[C@@H]1O[C@H](COP(=O)(O)OP(=O)(O)OP(=O)(O)O)[C@@H](O)[C@H]1O. Briefly: purified protein. Particulars: pH 7.5; 37.0 °C.

Take (Vaccinia virus WR): the Km – broadly, the substrate concentration at which the rate is half of its maximum – amounted to 0.74 µM.
